No end group written: not given here.
Columns and labels:
Assay type in all cases: physicochemical
[1] = X-ray diffuse scattering, G(−)IM LMM; conditions: G(−)IM LMM with peptide; for 2DC (±0.5), hydrocarbon thickness / DHH (±0.5), distance between phosphate groups: 75:1, 37 °C; for 2DC (±0.5), hydrocarbon thickness: control 29.1; for DHH (±0.5), distance between phosphate groups: control 39.2; for area/lipid (±1): 75:1 lipid/peptide (Figure 8), 37 °C, control 70.8
[2] = X-ray diffuse scattering, Euk33 LMM; conditions: Euk33 LMM with peptide; for 2DC (±0.5), hydrocarbon thickness / DHH (±0.5), distance between phosphate groups: 75:1, 37 °C; for 2DC (±0.5), hydrocarbon thickness: control 32.0; for DHH (±0.5), distance between phosphate groups: control 40.3; for area/lipid (±1): 75:1 lipid/peptide (Figure 9), 37 °C, control 64.2
[3] = Neutron reflectivity, peptide partitioning in tethered bilayer; conditions: single tethered G(−)IM bilayer, 37 °C, NR

Compound	2DC (±0.5), hydrocarbon thickness [1]	DHH (±0.5), distance between phosphate groups [1]	area/lipid (±1) [1]	2DC (±0.5), hydrocarbon thickness [2]	DHH (±0.5), distance between phosphate groups [2]	area/lipid (±1) [2]	fraction of protein in bulk solvent [3]	fraction of protein in hydrocarbons [3]	fraction of protein in outer headgroups [3]
CC[C@H](C)[C@H](NC(=O)[C@@H](NC(=O)[C@H](CO)NC(=O)[C@H](CCCCN)NC(=O)[C@@H](NC(=O)[C@H](CCCCN)NC(=O)CNC(=O)[C@H](Cc1c[nH]c2ccccc12)NC(=O)[C@@H](NC(=O)CNC(=O)CNC(=O)[C@@H](NC(=O)[C@H](Cc1c[nH]c2ccccc12)NC(=O)CNC(=O)[C@H](CCCCN)NC(=O)[C@@H](NC(=O)[C@H](CCCCN)NC(=O)[C@H](CCCCN)NC(=O)[C@H](Cc1ccccc1)NC(=O)[C@H](Cc1ccccc1)NC(=O)[C@H](CCCCN)NC(=O)[C@H](CCCCN)NC(=O)[C@@H](N)CC(C)C)C(C)C)C(C)C)C(C)C)C(C)C)C(C)C)C(=O)N[C@@H](CCCCN)C(=O)O (stereo in doubt) [A4-153]	29.5 Å	39.9 Å	69.9 Å^2	31.7 Å	41.4 Å	65.0 Å^2	0.25 ± 0.05	0.20 ± 0.10	0.50 ± 0.10
CC(C)[C@H](NC(=O)CNC(=O)CNC(=O)[C@@H](NC(=O)[C@H](Cc1c[nH]c2ccccc12)NC(=O)CNC(=O)[C@H](CCCCN)NC(=O)[C@@H](NC(=O)[C@H](CCCCN)NC(=O)[C@H](CCCCN)NC(=O)[C@H](Cc1ccccc1)NC(=O)[C@H](Cc1ccccc1)NC(=O)[C@H](CCCCN)NC(=O)[C@H](CCCCN)NC(=O)[C@@H](N)Cc1ccccc1)C(C)C)C(C)C)C(=O)N[C@@H](Cc1c[nH]c2ccccc12)C(=O)NCC(=O)N[C@@H](CCCCN)C(=O)N[C@H](C(=O)N[C@@H](CCCCN)C(=O)N[C@@H](CO)C(=O)N[C@H](C(=O)N[C@H](C(=O)N[C@@H](CCCCN)C(=O)O)C(C)C)C(C)C)C(C)C (stereo in doubt) [A4-157]	–	–	–	–	–	–	0.40 ± 0.10	0.38 ± 0.09	0.21 ± 0.09
FKKFLKKFKGWLGGLWGK [A4-183]	–	–	–	–	–	–	0.59 ± 0.09	0.14 ± 0.08	0.26 ± 0.06
GVKKKWKKKLGLTLWLKISGVV [A4-198, version scrambled to α-helical content, with a similar hydrophobicity as A4-153]	26.6 Å	35.5 Å	80.9 Å^2	29.7 Å	38.9 Å	74.0 Å^2	0.27 ± 0.06	0.51 ± 0.08	0.23 ± 0.07

Source: article PMC10265666, “Lung SPLUNC1 Peptide Derivatives in the Lipid Membrane Headgroup Kill Gram-Negative Planktonic and Biofilm Bacteria” (Biomacromolecules, 2023)
